Experimental data: publication PMC12810918, “Arginine metabolism has a pivotal function for the encystation of Giardia duodenalis” (PLOS Pathogens, 2026)

System: N=C(N)NCCC[C@H](N)C(=O)O
Assay: purified protein
Conditions: 40 mM Hepes pH 7.0, 0-20 mM arginine

Substance	Km	kcat
ADIAI (recombinant ADI, assemblage AI, isolate WB C6) (Giardia lamblia ATCC 50803; I449V)	300 ± 40 µM	3.86 ± 0.36 s⁻¹
ADIAI (recombinant ADI, assemblage AI, isolate WB C6) (Giardia lamblia ATCC 50803; I449V/P494L)	550 ± 90 µM	3.13 ± 0.18 s⁻¹
ADIAI (recombinant ADI, assemblage AI, isolate WB C6) (Giardia lamblia ATCC 50803; I449V/S167G)	560 ± 120 µM	4.14 ± 0.48 s⁻¹
ADIAI (recombinant ADI, assemblage AI, isolate WB C6) (Giardia lamblia ATCC 50803; P494L)	470 ± 80 µM	3.51 ± 0.40 s⁻¹
ADIAI (recombinant ADI, assemblage AI, isolate WB C6) (Giardia lamblia ATCC 50803; P494L/S167G)	1490 ± 300 µM	2.24 ± 0.06 s⁻¹
ADIAI (recombinant ADI, assemblage AI, isolate WB C6) (Giardia lamblia ATCC 50803; S167G)	500 ± 50 µM	–
